Each structure is given as a SMILES string. “And” between values parts separate entries of the source, which are not always exact repeats. Equal values may be shown once.

SI data for 17 compounds are collected here from PMC9416111, “Synthesis and Biological Activity of Unsymmetrical Monoterpenylhetaryl Disulfides” (Molecules, 2022).

The test system of the data set is influenza virus A/Puerto Rico/8/34 (H1N1). Nature of the data set: Antiviral cell protection assay in MDCK cells. Type of data set: cell-based. Conditions: ratio of CC50 to IC50 (MDCK).
Take `CC(C)[C@@H]1CC[C@@H](C)C[C@@H]1SSc1nc2ccccc2s1` [Compound 1a, 2-(((1S,2S,5R)-2-isopropyl-5-methylcyclohexyl)disulfanyl)benzo[d]thiazole]: the SI is 8. In the case of `Cc1cc(C)nc(SS[C@H]2C[C@H](C)CC[C@H]2C(C)C)n1` [Compound 1b, 2-(((1S,2S,5R)-2-isopropyl-5-methylcyclohexyl)disulfanyl)-4,6-dimethylpyrimidine] it was 2; in that of `COC(=O)c1cccnc1SS[C@H]1C[C@H](C)CC[C@H]1C(C)C` [Compound 1c, Methyl 2-(((1S,2S,5R)-2-isopropyl-5-methylcyclohexyl)disulfanyl)pyridine-3-carboxylate], 3; in that of `CC(C)[C@@H]1CC[C@@H](C)C[C@@H]1SSc1ncccc1C(=O)O` [Compound 1d, 2-(((1S,2S,5R)-2-isopropyl-5-methylcyclohexyl)disulfanyl)nicotinic acid], 1. For `CC1(C)[C@H]2CC[C@@H](CSSc3nc4ccccc4s3)[C@@H]1C2` [Compound 2a, 2-((((1S,2R,5S)-6,6-dimethylbicyclo [3.1.1]heptan-2-yl)methyl)disulfaneyl)benzo[d]thiazole] the value was 8; for `Cc1cc(C)nc(SSC[C@@H]2CC[C@H]3C[C@@H]2C3(C)C)n1` [Compound 2b, 2-((((1S,2R,5S)-6,6-dimethylbicyclo[3.1.1]heptan-2-yl)methyl)disulfanyl)-4,6-dimethylpyrimidine], 3; for `COC(=O)c1cccnc1SSC[C@@H]1CC[C@H]2C[C@@H]1C2(C)C` [Compound 2c, Methyl 2-((((1S,2R,5S)-6,6-dimethylbicyclo[3.1.1]heptan-2-yl)methyl)disulfaneyl)pyridine-3-carboxylate], 6. For `CC1(C)[C@H]2CC[C@@H](CSSc3ncccc3C(=O)O)[C@@H]1C2` [Compound 2d, 2-((((1S,2R,5S)-6,6-dimethylbicyclo[3.1.1]heptan-2-yl)methyl)disulfanyl)nicotinic acid] the value was > 10 and 12; for `CC1(C)[C@H]2C[C@H](SSc3nc4ccccc4s3)[C@@H](CO)[C@@H]1C2` [Compound 3a, ((1S,2R,3S,5R)-3-(benzo[d]thiazol-2-yldisulfanyl)-6,6-dimethylbicyclo[3.1.1]heptan-2-yl)methanol], 4. With `Cc1cc(C)nc(SS[C@H]2C[C@H]3C[C@@H]([C@@H]2CO)C3(C)C)n1` [Compound 3b, ((1S,2R,3S,5R)-3-((4,6-dimethylpyrimidin-2-yl)disulfanyl)-6,6-dimethylbicyclo[3.1.1]heptan-2-yl)methanol], the SI was 5. For `COC(=O)c1cccnc1SS[C@H]1C[C@H]2C[C@@H]([C@@H]1CO)C2(C)C` [Compound 3c, Methyl 2-(((1S,2R,3S,5R)-2-(hydroxymethyl)-6,6-dimethylbicyclo[3.1.1]hept-3-yl)disulfanyl)pyridine-3-carboxylate] the value was 1. For `CC1(C)[C@H]2C[C@H](SSc3ncccc3C(=O)O)[C@@H](CO)[C@@H]1C2` [Compound 3d, 2-(((1S,2R,3S,5R)-2-(hydroxymethyl)-6,6-dimethylbicyclo[3.1.1]heptan-3-yl)disulfanyl)nicotinic acid] the value was 2.

For `CC1(C)[C@H]2C[C@H](O)[C@@H](CSSc3nc4ccccc4s3)[C@@H]1C2` [Compound 4a, (1S,2S,3S,5R)-2-((benzo[d]thiazol-2-yldisulfanyl)methyl)-6,6-dimethylbicyclo[3.1.1]heptan-3-ol], the SI was found to be 2.

Consider `Cc1cc(C)nc(SSC[C@@H]2[C@@H](O)C[C@H]3C[C@@H]2C3(C)C)n1` [Compound 4b, (1S,2S,3S,5R)-2-(((4,6-dimethylpyrimidin-2-yl)disulfanyl)methyl)-6,6-dimethylbicyclo[3.1.1]heptan-3-ol], for which the SI is 3. In the case of `COC(=O)c1cccnc1SSC[C@@H]1[C@@H](O)C[C@H]2C[C@@H]1C2(C)C` [Compound 4c, Methyl 2-((((1S,2S,3S,5R)-3-hydroxy-6,6-dimethylbicyclo[3.1.1]heptan-2-yl)methyl)disulfanyl)pyridine-3-carboxylate], the SI is on record as 1. In the case of `CC1(C)[C@H]2C[C@H](O)[C@@H](CSSc3ncccc3C(=O)O)[C@@H]1C2` [Compound 4d, 2-((((1S,2S,3S,5R)-3-hydroxy-6,6-dimethylbicyclo[3.1.1]heptan-2-yl)methyl)disulfanyl)nicotinic acid] it was 2; in that of `CC(N)C12CC3CC(CC(C3)C1)C2` (centres unmarked) [Rimantadine, reference compound], 6.
